Test results: publication PMC3743349 (PLoS ONE, 2013)

Biological target: HLA-DM (DM), soluble, wild type, biotinylated at the BirA tag (human, biotin on the BirA tag)
Assay: SPR
Details: both partners purified

B1:  (peptide-MHC)
chain 1: [about 200 residues left out]
chain 2: DTRPRFLWQLKFECHFFNGTERVRLLERSIYNQEESVRFDSDVGEYRAVTELGRPDAEYWNSQKDLLEQRRAAVDTYCRHNYGVGESFTVQRRVEPKVTVYPSKTQPLQHHNLLVCSVSGFYPGSIEVRWFRNGQEEKAGVVSTGLIQNGDWTFQTLVMLETVPRSGEVYTCQVEHPSVTSPLTVEWRARSE
chain 3: VVKQNCLKLATK
  fold reduction in binding compared to DR1:pHA*^P2-P11: 5 fold
